Pooled drug test results. Numbers come from NIAID ChemDB, via PubChem.

All rows: tests in culture; species: Cryptococcus neoformans; read-out: MIC

Blank or dashed fields: not listed here. Rows are shuffled and stem from different studies.

COc1ccc(/C=C2\COc3ccc(-c4ccccc4)cc3C2=O)cc1 ; strain: 93/V ; result: 50 µg/mL
CCc1c(C(c2ccccc2)n2ccnc2)cnn1-c1ccccc1 ; result: 200 µM
CC[C@@]1(O)C[C@H](O[C@H]2C[C@H](N(C)C)[C@H](O[C@H]3C[C@H](O)[C@H](O[C@H]4CCC(=O)[C@H](C)O4)[C@H](C)O3)[C@H](C)O2)c2c(cc3c(c2O)C(=O)c2c(O)cccc2C3=O)[C@H]1C(=O)OC ; strain: Serotype D ; result: 0.8 µg/mL
COc1ccc(/C=C2\CS(=O)c3ccccc3C2=O)cc1 ; strain: 93/V ; result: 25 µg/mL
COc1ccc(-c2sc3ccccc3c2CO)c(O)c1 ; strain: Isolate 25 ; result: 12.5 µg/mL
Cc1c(C(c2ccccc2)n2ccnc2)cnn1-c1ccccc1 ; result: 200 µM
C[C@@H](N1CCN(c2ccc(C(F)(F)F)cc2)C1=O)C(O)(Cn1cncn1)c1ccc(F)cc1F ; strain: TIMM1740 ; result: <0.016 µg/mL
CC[C@@H]([C@H](C)O)n1ncn(-c2ccc(N3CCN(c4ccc(OC[C@@H]5CO[C@@](Cn6cncn6)(c6ccc(F)cc6F)C5)cc4)CC3)cc2)c1=O ; strain: DUMC114.90 ; result: 0.063 µg/mL
COC1CC2CCC(C)C(O)(O2)C(=O)C(=O)N2CCCCC2C(=O)OC(C(C)CC2CCC(O)C(OC)C2)CC(=O)C(C)/C=C(\C)C(O)C(OC)C(=O)C(C)C[C@](C)(N(O)C(=O)NN2CCCCC2)/C=C/C=C/C=C/1C ; strain: TOR1-1 ; result: >100 µg/mL
C[C@@H](N1CCN(c2ccc(OC(F)(F)C(F)F)cc2)C1=O)C(O)(Cn1cncn1)c1ccccc1F ; strain: TIMM1855 ; result: <0.016 µg/mL
O=C1/C(=C/c2ccc(-c3ccccc3)cc2)CSc2ccccc21 ; strain: 93/V ; result: 6 µg/mL
OC(Cn1cncn1)(Cn1nnnc1CCN1CCN(C(c2ccccc2)c2ccccc2)CC1)c1ccc(F)cc1F ; strain: LA314 ; result: >16 µg/mL
COc1ccc(/C=C2\CSc3ccc(OC)cc3C2=O)cc1 ; strain: Farwania ; result: 12.5 µg/mL
CCc1c(C(c2ccccc2)n2cncn2)cnn1-c1ccccc1 ; result: >200 µM
COc1ccc(/C=C2\CCc3ccccc3C2=O)cc1OC ; strain: 25 ; result: 25 µg/mL
OC(Cn1cncn1)(Cn1nnnc1CCN1CCN(c2ccc(Cl)cc2)CC1)c1ccc(F)cc1F ; strain: LA314 ; result: >16 µg/mL
C[C@@H](N1CCN(c2ccc(OCC(F)(F)C(F)F)cc2)C1=O)C(O)(Cn1cncn1)c1ccccc1F ; strain: TIMM1855 ; result: 0.03 µg/mL
CCOc1ccc(/C=C2\CCc3ccccc3C2=O)cc1 ; strain: Farwania ; result: 12.5 µg/mL
OC(Cn1cncn1)(Cn1nnc(CCN2CCN(c3ccccn3)CC2)n1)c1ccc(F)cc1F ; strain: LA314 ; result: >16 µg/mL
C[C@@H](N1CCN(c2ccc(OCC(F)(F)C(F)F)cc2)C1=O)C(O)(Cn1cncn1)c1ccc(F)cc1F ; strain: TIMM1855 ; result: 0.03 µg/mL
OCC1c2ccccc2SC1c1cc(Br)ccc1O ; strain: Isolate 25 ; result: 6 µg/mL
OC(Cn1cncn1)(Cn1nnnc1CCN1CCN(c2ccc(F)cc2)CC1)c1ccc(F)cc1F ; strain: LA314 ; result: >16 µg/mL
COc1cc(O)c2c(c1)C(=O)c1c(cc3c(c1O)-c1c(cc(C)c(C(=O)NCC(=O)O)c1O)[C@H](O[C@@H]1O[C@H](C)[C@H](N)[C@H](O[C@@H]4OC[C@@H](O)[C@H](O)[C@H]4O)[C@H]1O)[C@H]3O)C2=O ; strain: D49 ; result: 0.8 µg/mL
CC[C@H]1/C=C(\C)[C@H](O)[C@H](C)C[C@H](OC)[C@H]2O[C@@](O)(C(=O)C(=O)N3CCCC[C@H]3C(=O)O[C@H](/C(C)=C/[C@@H]3CC[C@@H](O)[C@H](OC)C3)[C@H](C)[C@@H](O)CC1=O)[C@H](C)C[C@@H]2OC ; strain: C20F2 ; result: 50 µg/mL
OCC1c2ccccc2SC1c1ccccc1 ; strain: Isolate 25 ; result: 6 µg/mL
CCC(C)CC(C)CCCCCCCCC(=O)N[C@H]1C[C@@H](O)[C@H](NCCN)NC(=O)[C@@H]2[C@@H](O)CCN2C(=O)[C@H]([C@H](O)CCN)NC(=O)[C@H]([C@H](O)[C@@H](O)c2ccc(O)cc2)NC(=O)[C@@H]2C[C@@H](O)CN2C(=O)[C@H]([C@@H](C)O)NC1=O ; strain: 1041.007 ; result: >2 µg/mL
COc1ccccc1/C=C1\COc2ccccc2C1=O ; strain: 93/V ; result: 50 µg/mL
C[C@H](n1nnnc1CCN1CCN(c2ccc([N+](=O)[O-])cc2)CC1)[C@](O)(Cn1cncn1)c1ccc(F)cc1F ; strain: LA314 ; result: 4 µg/mL
CN(C)c1ccc(-c2sc3ccccc3c2CO)cc1 ; strain: 93/V ; result: 25 µg/mL
COc1ccc(/C=C2\CSc3ccc(Cl)cc3C2=O)cc1OC ; strain: Farwania ; result: 6 µg/mL
OCC1c2ccccc2SC1c1ccc2c(c1)OCO2 ; strain: Farwania ; result: 12.5 µg/mL
COC1CC2CCC(C)C(O)(O2)C(O)C(O)N2CCCCC2C(=O)OC(C(C)CC2CCC(O)C(OC)C2)CC(=O)C(C)/C=C(\C)C(O)C(OC)C(=O)C(C)CC(C)/C=C/C=C/C=C/1C ; strain: FRR1 ; result: >100 µg/mL
C[C@@H](n1ncn(-c2ccc(OCC(F)(F)C(F)F)cc2)c1=O)[C@](O)(Cn1cncn1)c1ccc(F)cc1F ; strain: TIMM1855 ; result: 0.25 µg/mL
C[C@H](n1nnnc1CCN1CCN(c2ccc(F)cc2)CC1)[C@](O)(Cn1cncn1)c1ccc(F)cc1F ; strain: LA314 ; result: 2 µg/mL
C[C@@H](n1ccn(-c2ccc(OC(F)(F)C(F)F)cc2)c1=O)C(O)(Cn1cncn1)c1ccccc1F ; strain: TIMM1855 ; result: 0.13 µg/mL
CC(C(O)(Cn1cncn1)c1ccc(F)cc1F)S(C)(=O)=O ; strain: R718 (AZOLE-R) ; result: 50 µM
c1ccc(C(c2cnn(-c3ccccc3)c2)n2ccnc2)cc1 ; result: 200 µM
O=C1/C(=C/c2ccc3c(c2)OCO3)CCc2ccccc21 ; strain: 93/V ; result: 50 µg/mL
C[C@H](n1nnnc1CCN1CCN(c2ccccc2Cl)CC1)[C@](O)(Cn1cncn1)c1ccc(F)cc1F ; strain: LA314 ; result: 8 µg/mL

Repeating the first 5 entries:

structure	strain	result
COc1ccc(/C=C2\COc3ccc(-c4ccccc4)cc3C2=O)cc1	93/V	50 µg/mL
CCc1c(C(c2ccccc2)n2ccnc2)cnn1-c1ccccc1		200 µM
CC[C@@]1(O)C[C@H](O[C@H]2C[C@H](N(C)C)[C@H](O[C@H]3C[C@H](O)[C@H](O[C@H]4CCC(=O)[C@H](C)O4)[C@H](C)O3)[C@H](C)O2)c2c(cc3c(c2O)C(=O)c2c(O)cccc2C3=O)[C@H]1C(=O)OC	Serotype D	0.8 µg/mL
COc1ccc(/C=C2\CS(=O)c3ccccc3C2=O)cc1	93/V	25 µg/mL
COc1ccc(-c2sc3ccccc3c2CO)c(O)c1	Isolate 25	12.5 µg/mL